BindingDB's records for doi:10.1002/cmdc.202100576 (Experimental Drug Development Centre, 2021)

Target: Replicase polyprotein 1ab (Severe acute respiratory syndrome coronavirus, UniProt P0C6X7)
Assay: Various Assay

Row | SMILES | IC50 [µM]
1 | O=c1c(OC2O[C@H](CO)[C@H](O)[C@@H](O)[C@H]2O)c(-c2ccc(O)c(O)c2)oc2cc(O)cc(O)c12 (some centres not stated) [cmdc.202100576, 12d] | 49.7
2 | O=c1c(O[C@@H]2O[C@H](CO)[C@H](O)[C@H](O)[C@H]2O)c(-c2ccc(O)c(O)c2)oc2cc(O)cc(O)c12 [jm5b01461, Compound 84] | 50.5
